Share of PSTVd loop 15 variants by leaf site

Region: loop 15 of PSTVd (intermediate strain), upper and lower strand joined, each 5' to 3', the first 7 letters being the upper strand, closing pairs included. Wild type: GGAAACCGCUACUAC. Varied positions (N): GGAAACCGNNNNNNC.

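A pool of all variants was put on leaves of three Nicotiana benthamiana plants. Samples came from the inoculated region at 5 days, the leaf margin at 10 and upper systemic leaves at 12.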

Numbers give reads per thousand; 0 = not seen among the reads, higher = more abundant. Each site shows the three plants. "Pool" is the share in the plasmid pool used as inoculum, on the same scale. The inoculated region was read from the minus strand, the other sites from the plus strand. IR is the inoculated region, LM the leaf margin, Sys the systemic leaves.

| sequence | pool | IR | LM | Sys |
|---|---|---|---|---|
| GGAAACCGGAUCCAC | 0.208 | 0.147 / 0.129 / 0.248 | 0 / 0 / 0 | 0 / 0 / 0 |
| GGAAACCGGAUCCCC | 0.240 | 0.0655 / 0.0643 / 0.152 | 0 / 0 / 0 | 0 / 0 / 0 |
| GGAAACCGGAUCCGC | 0.0960 | 0.180 / 0.161 / 0.114 | 0.0162 / 0 / 0.0200 | 0.0161 / 0 / 0 |
| GGAAACCGGAUCCUC | 0.208 | 0.131 / 0.0643 / 0.133 | 0 / 0.0223 / 0 | 0 / 0 / 0 |
| GGAAACCGGAUCGAC | 0.336 | 0 / 0.129 / 0.0571 | 0 / 0 / 0.0401 | 0 / 0 / 0 |
| GGAAACCGGAUCGCC | 0.128 | 0.0491 / 0.112 / 0.0571 | 0 / 0 / 0 | 0 / 0 / 0 |
| GGAAACCGGAUCGGC | 0.176 | 0.0983 / 0.0803 / 0.0952 | 0.0485 / 0 / 0 | 0 / 0 / 0 |
| GGAAACCGGAUCGUC | 0.416 | 0.0983 / 0.112 / 0.0571 | 0 / 0 / 0 | 0 / 0 / 0 |
| GGAAACCGGAUCUAC | 0.240 | 0.115 / 0.161 / 0.114 | 0.0162 / 0 / 0.0401 | 0.0161 / 0 / 0 |
| GGAAACCGGAUCUCC | 0.288 | 0.0819 / 0.112 / 0.114 | 0 / 0 / 0 | 0 / 0 / 0 |
| GGAAACCGGAUCUGC | 0.256 | 0.0983 / 0.145 / 0.114 | 0 / 0 / 0.0401 | 0 / 0 / 0 |
| GGAAACCGGAUCUUC | 0.240 | 0.0491 / 0.0803 / 0.114 | 0.0162 / 0 / 0 | 0 / 0 / 0 |
| GGAAACCGGAUGAAC | 0.288 | 0.115 / 0.112 / 0.0571 | 0.0162 / 0 / 0.0200 | 0 / 0 / 0 |
| GGAAACCGGAUGACC | 0.256 | 0.0491 / 0.129 / 0.0571 | 0 / 0 / 0.0401 | 0 / 0 / 0 |
| GGAAACCGGAUGAGC | 0.352 | 0.0491 / 0.0964 / 0.0571 | 0.0162 / 0.0223 / 0.0200 | 0 / 0 / 0 |
| GGAAACCGGAUGAUC | 0.448 | 0.115 / 0.0643 / 0.0190 | 0 / 0 / 0.0200 | 0 / 0 / 0 |
| GGAAACCGGAUGCAC | 0.336 | 0.115 / 0.112 / 0.114 | 0 / 0.0223 / 0 | 0 / 0 / 0 |
| GGAAACCGGAUGCCC | 0.208 | 0.0819 / 0.193 / 0.228 | 0 / 0 / 0 | 0 / 0 / 0 |
| GGAAACCGGAUGCGC | 0.160 | 0.0655 / 0.0482 / 0.152 | 0 / 0 / 0 | 0 / 0 / 0 |
| GGAAACCGGAUGCUC | 0.256 | 0.0983 / 0.112 / 0.0952 | 0.0162 / 0 / 0 | 0 / 0 / 0 |
| GGAAACCGGAUGGAC | 0.288 | 0.0655 / 0.0964 / 0.114 | 0 / 0 / 0 | 0 / 0 / 0 |
| GGAAACCGGAUGGCC | 0.112 | 0.0655 / 0.0482 / 0.0571 | 0 / 0 / 0.0200 | 0 / 0 / 0 |
| GGAAACCGGAUGGGC | 0.256 | 0.0328 / 0.0803 / 0.0952 | 0 / 0.0223 / 0.0200 | 0.0161 / 0 / 0 |
| GGAAACCGGAUGGUC | 0.288 | 0.0328 / 0.0964 / 0.171 | 0 / 0 / 0.0401 | 0 / 0 / 0 |
| GGAAACCGGAUGUAC | 0.176 | 0.393 / 0.353 / 0.381 | 0.129 / 0.0891 / 0.100 | 0.0483 / 0 / 0 |
| GGAAACCGGAUGUCC | 0.384 | 0.0819 / 0.0964 / 0.133 | 0 / 0 / 0 | 0.0161 / 0 / 0.0228 |
| GGAAACCGGAUGUGC | 0.256 | 0.131 / 0.0803 / 0.0571 | 0 / 0.0223 / 0 | 0 / 0 / 0 |
| GGAAACCGGAUGUUC | 0.368 | 0.0164 / 0.0482 / 0.0952 | 0 / 0.0223 / 0.0200 | 0 / 0 / 0 |
| GGAAACCGGAUUAAC | 0.240 | 0.115 / 0.112 / 0.0952 | 0.0162 / 0 / 0.0200 | 0.0161 / 0 / 0 |
| GGAAACCGGAUUACC | 0.144 | 0.0655 / 0.0803 / 0.0571 | 0 / 0 / 0 | 0 / 0 / 0 |
| GGAAACCGGAUUAGC | 0.192 | 0.147 / 0.112 / 0.0762 | 0.0162 / 0 / 0.0401 | 0.0161 / 0 / 0 |
| GGAAACCGGAUUAUC | 0.128 | 0.0491 / 0.0643 / 0.114 | 0.0162 / 0.0223 / 0.0200 | 0 / 0 / 0 |
| GGAAACCGGAUUCAC | 0.192 | 0.180 / 0.209 / 0.114 | 0 / 0.0223 / 0 | 0 / 0 / 0.0228 |
| GGAAACCGGAUUCCC | 0.112 | 0.0328 / 0.0964 / 0.190 | 0 / 0 / 0.0200 | 0 / 0 / 0 |
| GGAAACCGGAUUCGC | 0.208 | 0.0164 / 0.129 / 0.0762 | 0 / 0 / 0.0200 | 0 / 0 / 0 |
| GGAAACCGGAUUCUC | 0.208 | 0.131 / 0.112 / 0.0571 | 0 / 0 / 0 | 0.0161 / 0 / 0 |
| GGAAACCGGAUUGAC | 0.352 | 0.0655 / 0.0964 / 0.0571 | 0 / 0 / 0 | 0 / 0 / 0 |
| GGAAACCGGAUUGCC | 0.336 | 0.0983 / 0.0803 / 0.0381 | 0.0162 / 0 / 0 | 0 / 0 / 0 |
| GGAAACCGGAUUGGC | 0.224 | 0.0983 / 0.0643 / 0.152 | 0 / 0.0223 / 0.0200 | 0 / 0 / 0 |
| GGAAACCGGAUUGUC | 0.288 | 0.147 / 0.145 / 0.0571 | 0 / 0 / 0.0200 | 0.0161 / 0 / 0 |
| GGAAACCGGAUUUAC | 0.288 | 0.131 / 0.112 / 0.228 | 0 / 0 / 0 | 0 / 0 / 0 |
| GGAAACCGGAUUUCC | 0.288 | 0.0655 / 0.177 / 0.0381 | 0 / 0.0223 / 0 | 0 / 0 / 0 |
| GGAAACCGGAUUUGC | 0.144 | 0.0819 / 0.112 / 0.114 | 0 / 0 / 0.0200 | 0 / 0 / 0 |
| GGAAACCGGAUUUUC | 0.304 | 0.0491 / 0.0643 / 0.171 | 0 / 0 / 0.0200 | 0 / 0 / 0 |
| GGAAACCGGCAAAAC | 0.144 | 0.115 / 0.0803 / 0.0762 | 0.0323 / 0.0445 / 0 | 0.0161 / 0 / 0 |
| GGAAACCGGCAAACC | 0.288 | 0.115 / 0.112 / 0.0952 | 0.0162 / 0 / 0 | 0 / 0 / 0 |
| GGAAACCGGCAAAGC | 0.192 | 0.0328 / 0.145 / 0.133 | 0.0162 / 0 / 0.0401 | 0 / 0 / 0 |
| GGAAACCGGCAAAUC | 0.144 | 0.0491 / 0.0803 / 0.171 | 0 / 0 / 0 | 0 / 0 / 0 |
| GGAAACCGGCAACAC | 0.144 | 0.0983 / 0.209 / 0.0952 | 0 / 0 / 0 | 0 / 0 / 0 |
| GGAAACCGGCAACCC | 0.256 | 0.115 / 0.0482 / 0.0571 | 0 / 0 / 0.0200 | 0 / 0 / 0 |
| GGAAACCGGCAACGC | 0.112 | 0.164 / 0.145 / 0.0571 | 0.0323 / 0 / 0.0200 | 0 / 0 / 0 |
| GGAAACCGGCAACUC | 0.256 | 0.164 / 0.145 / 0.0762 | 0.0162 / 0.0223 / 0.0401 | 0.0161 / 0 / 0 |
| GGAAACCGGCAAGAC | 0.192 | 0.131 / 0.112 / 0.0762 | 0 / 0 / 0.0401 | 0.0161 / 0 / 0 |
| GGAAACCGGCAAGCC | 0.160 | 0.0819 / 0.0964 / 0.0952 | 0 / 0 / 0.0200 | 0.0161 / 0 / 0 |
| GGAAACCGGCAAGGC | 0.288 | 0.0328 / 0.0964 / 0.0952 | 0.0162 / 0 / 0.0200 | 0 / 0 / 0 |
| GGAAACCGGCAAGUC | 0.128 | 0.115 / 0.0803 / 0.133 | 0 / 0 / 0 | 0 / 0 / 0 |
| GGAAACCGGCAAUAC | 0.256 | 0.377 / 0.353 / 0.495 | 0.113 / 0.111 / 0.0801 | 0.0483 / 0.0454 / 0.205 |
| GGAAACCGGCAAUCC | 0.160 | 0.0655 / 0.112 / 0.133 | 0 / 0.0223 / 0 | 0 / 0 / 0 |
| GGAAACCGGCAAUGC | 0.160 | 0.0655 / 0.0964 / 0.209 | 0.0162 / 0.0223 / 0.0200 | 0 / 0 / 0 |
| GGAAACCGGCAAUUC | 0.240 | 0.311 / 0.289 / 0.324 | 0.0647 / 0.0891 / 0.301 | 0.0483 / 0 / 0 |
| GGAAACCGGCACAAC | 0.208 | 0.115 / 0.0964 / 0.0571 | 0 / 0 / 0.0200 | 0.0483 / 0 / 0 |

With 43,870-66,106 reads a sample, very low values are single reads. Wild type was 33.9 per thousand in the pool and the most common sequence in every sample (inoculated region 202, 200, 159; leaf margin 724, 746, 710; systemic leaves 856, 883, 880). Sequences that differ at fixed positions probably stem from PCR or sequencing errors, and defective variants can be carried along by functional ones.

Source: Wu et al. 2024 (doi:10.1371/journal.ppat.1012142), supplementary data.